A mixed list of measured activities; the numbers were collected in NIAID ChemDB.

All rows: tests in culture; species: HIV-1; endpoint: EC50

ECn: concentration that inhibits the pathogen or its effect by n%. Conditions beyond the fields shown may differ between rows.

{"SMILES": "CCOC(=O)C12C(c3ccc(O)cc3)C3(C(=O)OCC)C4(C)OC1(C)C1(C(=O)OCC)C(c5ccc(O)cc5)C4(C(=O)OCC)C3(C)OC21C", "cell line": "MT-4", "method": "p24 / ELISA", "strain": "IIIB", "value": "0.03283 µM"}
{"SMILES": "O=C(O)c1ccc(OCc2nc3cc(C(F)(F)F)ccc3n3cccc23)cc1", "cell line": "MT-4", "method": "cytopathic effect / MTT", "value": ">100 µM"}
{"SMILES": "CC(C)C1=C2[C@H]3CC[C@@H]4[C@@]5(C)CC[C@H](OC(=O)[C@H]6C[C@@H](C(=O)O)C6(C)C)C(C)(C)[C@@H]5CC[C@@]4(C)[C@]3(C)CC[C@@]2([C@@H](O)CNC(=O)C(C)(C)NC(=O)c2ccc(N3CCS(=O)(=O)CC3)cc2)CC1=O", "cell line": "MT-2", "method": "p24 / ELISA", "strain": "92HT599", "value": "<1 µM"}
{"SMILES": "Cc1occc1C(=S)Nc1ccc(Cl)c(COC(C)(C)C)c1", "cell line": "CEM + CEM-SS", "method": "cytopathic effect / XTT", "strain": "IIIB", "value": "0.14 µM"}
{"SMILES": "Nc1c(C(=O)NCc2ccc(F)cc2F)c(=O)n(O)c2ncc(CCCCCO)cc12", "cell line": "HOS", "method": "luciferase", "value": "<0.004 µM"}
{"SMILES": "COc1cc(/C=C/c2nc(NC(=S)Nc3ccccc3Cl)c3ccccc3n2)cc(OC)c1OC", "cell line": "MT-4", "method": "MTT", "strain": "IIIB", "value": ">3.85 µg/mL"}
{"SMILES": "Cc1occc1C(=S)Nc1ccc(Cl)c(/C=N/OC(C)(C)C)c1", "cell line": "CEM + CEM-SS", "method": "cytopathic effect / XTT", "strain": "NL4-3", "changes": "RT-L100I", "value": "2.2 µM"}
{"SMILES": "CC1(c2nc3ccccc3[nH]2)CCC(C(N)=O)C(C)(C)O1", "cell line": "CEM + CEM-SS", "strain": "RF", "value": ">0.063 µM"}
{"SMILES": "CCOC(=O)C12C(c3ccc(NC(C)=O)cc3)C3(C(=O)OCC)C4(C)OC1(C)C1(C(=O)OCC)C(c5ccc(NC(C)=O)cc5)C4(C(=O)OCC)C3(C)OC21C", "cell line": "MT-4", "method": "p24 / ELISA", "strain": "IIIB", "value": "0.05608 µM"}
{"SMILES": "Cc1occc1C(=S)Nc1ccc(Cl)c(C(=O)OC(C)C)c1", "cell line": "CEM + CEM-SS", "method": "cytopathic effect / XTT", "strain": "NL4-3", "changes": "RT-A98G", "value": "0.03 µM"}
{"SMILES": "CC(C)=CCN1Cc2cc(Cl)cc3[nH]c(=O)n(c23)C[C@@H]1C", "cell line": "MT-4", "method": "cytopathic effect / XTT", "strain": "IIIB", "value": "0.25 µM"}
{"SMILES": "COc1cc(/C=C/c2nc(NC(=S)Nc3ccccc3)c3ccccc3n2)cc(OC)c1OC", "cell line": "MT-4", "method": "MTT", "strain": "IIIB", "value": ">5.66 µg/mL"}
{"SMILES": "Clc1cc2nc(C3CCCO3)[nH]c2cc1Cl", "cell line": "CEM + CEM-SS", "strain": "RF", "value": ">0.063 µM"}
{"SMILES": "COc1cc(Cl)ccc1C(=O)NC(C)(C)CNC[C@H](O)[C@@]12CC[C@]3(C)[C@H](CC[C@@H]4[C@@]5(C)CC[C@H](OC(=O)[C@H]6C[C@@H](C(=O)O)C6(C)C)C(C)(C)[C@@H]5CC[C@]43C)C1=C(C(C)C)C(=O)C2", "cell line": "MT-2", "method": "p24 / ELISA", "strain": "92HT599", "value": "<1 µM"}
{"SMILES": "COc1cc(/C=C/c2nc(NC(=S)Nc3ccc(C)cc3)c3ccccc3n2)cc(OC)c1OC", "cell line": "MT-4", "method": "MTT", "strain": "IIIB", "value": ">1.7 µg/mL"}
{"SMILES": "CC(C)C1=C2[C@H]3CC[C@@H]4[C@@]5(C)CC[C@H](OC(=O)[C@H]6C[C@@H](C(=O)O)C6(C)C)C(C)(C)[C@@H]5CC[C@@]4(C)[C@]3(C)CC[C@@]2(CCNCC2(NC(=O)c3ccc(Cl)cc3)COC2)CC1=O", "cell line": "MT-2", "method": "p24 / ELISA", "strain": "92HT599", "value": "<1 µM"}
{"SMILES": "COc1cc(/C=C/c2nc(NC(=O)Nc3cccc(Cl)c3)c3ccccc3n2)cc(OC)c1OC", "cell line": "MT-4", "method": "MTT", "strain": "IIIB", "value": ">2.08 µg/mL"}
{"SMILES": "CC(C)C1=C2[C@H]3CC[C@@H]4[C@@]5(C)CC[C@H](OC(=O)[C@H]6C[C@@H](C(=O)O)C6(C)C)C(C)(C)[C@@H]5CC[C@@]4(C)[C@]3(C)CC[C@@]2([C@@H](O)CNC(=O)[C@H](NC(=O)c2ccc(Cl)cc2)C(C)O)CC1=O", "cell line": "MT-2", "method": "p24 / ELISA", "strain": "92HT599", "value": "<1 µM"}
{"SMILES": "CCOC(=O)c1ccc(Nc2nc3ccccc3n3cccc23)cc1", "cell line": "MT-4", "method": "cytopathic effect / MTT", "value": ">100 µM"}
{"SMILES": "C=CCOc1cc(NC(=S)c2sccc2C)ccc1Cl", "cell line": "CEM + CEM-SS", "method": "cytopathic effect / XTT", "strain": "IIIB", "value": "0.8 µM"}
{"SMILES": "CCOC(=O)c1c(C(C)C)c(C#N)c(=N)n2ccccc12", "cell line": "MT-4", "method": "syncytia", "strain": "IIIB", "value": "<42.5 µM"}
{"SMILES": "COc1cc(OC)cc(OCc2nc3cc(C(F)(F)F)ccc3n3cccc23)c1", "cell line": "MT-4", "method": "cytopathic effect / MTT", "value": ">100 µM"}
{"SMILES": "CC(C)C1=C2[C@H]3CC[C@@H]4[C@@]5(C)CC[C@H](OC(=O)[C@H]6C[C@@H](C(=O)O)C6(C)C)C(C)(C)[C@@H]5CC[C@@]4(C)[C@]3(C)CC[C@@]2(CC(=O)NCc2ccc(Cl)cc2OCCN2CCS(=O)(=O)CC2)CC1=O", "cell line": "MT-2", "method": "p24 / ELISA", "strain": "92HT599", "value": "<1 µM"}
{"SMILES": "CC12CCC(C(=O)n3c1nc1ccccc13)C(C)(C)O2", "cell line": "CEM + CEM-SS", "strain": "RF", "value": ">200 µM"}
{"SMILES": "CC(C)C1=C2[C@H]3CC[C@@H]4[C@@]5(C)CC[C@H](OC(=O)[C@H]6C[C@@H](C(=O)O)C6(C)C)C(C)(C)[C@@H]5CC[C@@]4(C)[C@]3(C)CC[C@@]2([C@@H](O)CNC(=O)c2csc(N)n2)CC1=O", "cell line": "MT-2", "method": "p24 / ELISA", "strain": "92HT599", "value": "<1 µM"}
{"SMILES": "CCOC(=O)C12C(c3ccc(OC)cc3)C3(C(=O)OCC)C4(C)OC1(C)C1(C(=O)OCC)C(c5ccc(OC)cc5)C4(C(=O)OCC)C3(C)OC21C", "cell line": "MT-4", "method": "p24 / ELISA", "strain": "IIIB", "value": "0.02789 µM"}
{"SMILES": "CC=CCOc1cc(NC(=S)c2ccoc2C)ccc1OC", "cell line": "CEM + CEM-SS", "method": "cytopathic effect / XTT", "strain": "NL4-3", "changes": "RT-L74V", "value": "0.03 µM"}
{"SMILES": "Nc1c(C(=O)NCc2ccc(F)cc2F)c(=O)n(O)c2ncc(CCS(=O)(=O)CCN3CCOCC3)cc12", "cell line": "HOS", "method": "luciferase", "value": "0.195 µM"}
{"SMILES": "CCOC(=O)C12C(c3ccc(Cl)cc3)C3(C(=O)OCC)C4(C)OC1(C)C1(C(=O)OCC)C(c5ccc(Cl)cc5)C4(C(=O)OCC)C3(C)OC21C", "cell line": "MT-4", "method": "p24 / ELISA", "strain": "IIIB", "value": "0.03469 µM"}
{"SMILES": "Cc1occc1C(=S)Nc1ccc(Cl)c(C(=O)OCC2CC2)c1", "cell line": "CEM + CEM-SS", "method": "cytopathic effect / XTT", "strain": "NL4-3", "changes": "RT-V179D", "value": "0.5 µM"}
{"SMILES": "Nc1c(C(=O)NCc2ccc(F)cc2F)c(=O)n(O)c2ncc(CCCCCCO)cc12", "cell line": "HOS", "method": "luciferase", "changes": "AGT (GGGAGT)", "value": "<0.001 µM"}
{"SMILES": "COc1ccc(OCc2nc3cc(C(F)(F)F)ccc3n3cccc23)cc1", "cell line": "MT-4", "method": "cytopathic effect / MTT", "value": ">52 µM"}
{"SMILES": "COc1cc(/C=C/c2nc(NC(=O)Nc3cccc(C)c3)c3ccccc3n2)cc(OC)c1OC", "cell line": "MT-4", "method": "MTT", "strain": "IIIB", "value": ">0.96 µg/mL"}
{"SMILES": "CCCCCCCCCCCCCCCCCCOC[C@H](CO[C@]1(C(=O)O)C[C@H](OS(=O)(=O)O)[C@@H](NC(C)=O)[C@H]([C@H](OS(=O)(=O)O)[C@@H](COS(=O)(=O)O)OS(=O)(=O)O)O1)OCCCCCCCCCCCCCCCCCC", "cell line": "H9", "method": "p24", "strain": "IIIB", "value": "2.5 µM"}
{"SMILES": "CCOC(=O)CCC(NC(=O)c1ccc(OCc2nc3cc(C(F)(F)F)ccc3n3cccc23)cc1)C(=O)OCC", "cell line": "MT-4", "method": "cytopathic effect / MTT", "value": ">100 µM"}
{"SMILES": "CCCCCCCCCCCCCCOC[C@H](CO[C@]1(C(=O)O)C[C@H](OS(=O)(=O)O)[C@@H](NC(C)=O)[C@H]([C@H](OS(=O)(=O)O)[C@@H](COS(=O)(=O)O)OS(=O)(=O)O)O1)OCCCCCCCCCCCCCC", "cell line": "H9", "method": "p24", "strain": "IIIB", "value": "16 µM"}
{"SMILES": "O=C(O)CCC(NC(=O)c1ccc(OCc2nc3ccccc3n3cccc23)cc1)C(=O)O", "cell line": "MT-4", "method": "cytopathic effect / MTT", "value": ">95 µM"}
{"SMILES": "CCOC(=O)C12C(c3ccc(F)c(F)c3)C3(C(=O)OCC)C4(C)OC1(C)C1(C(=O)OCC)C(c5ccc(F)c(F)c5)C4(C(=O)OCC)C3(C)OC21C", "cell line": "MT-4", "method": "p24 / ELISA", "strain": "IIIB", "value": "0.02857 µM"}
{"SMILES": "ClCc1nc2ccccc2n2cccc12", "cell line": "MT-4", "method": "cytopathic effect / MTT", "value": ">100 µM"}
{"SMILES": "C=CCO/N=C/c1cc(NC(=S)c2ccoc2C)ccc1Cl", "cell line": "CEM + CEM-SS", "method": "cytopathic effect / XTT", "strain": "NL4-3", "changes": "RT-V179D", "value": "0.66 µM"}

The last 2 rows once more:

{"SMILES": "ClCc1nc2ccccc2n2cccc12", "cell line": "MT-4", "method": "cytopathic effect / MTT", "value": ">100 µM"}
{"SMILES": "C=CCO/N=C/c1cc(NC(=S)c2ccoc2C)ccc1Cl", "cell line": "CEM + CEM-SS", "method": "cytopathic effect / XTT", "strain": "NL4-3", "changes": "RT-V179D", "value": "0.66 µM"}